Reference: PMC8413292, “Small-molecule polymerase inhibitor protects non-human primates from measles and reduces shedding” (Nature Communications, 2021)

System: MV/FrankfurtMain.DEU/17.11 (genotype D8)
Test: Neutralizing antibody titers in serum
Assay type: in vivo, squirrel monkeys (Saimiri sciureus)
Protocol: White blood cell counts, viral load quantification in PBMCs, and quantification of neutralizing antibody titers were performed as follows: for white blood cell counts, blood was diluted 1:100 in 3% acetic acid and cells were counted using a Neubauer chamber. For viral load quantification in PBMCs, blood was centrifuged at 3000 rpm for 15 min and serum was frozen at −20 °C until further use. Red blood cell lysis was performed and the remaining PBMCs were counted using a Neubauer chamber. Viral titers in PBMCs were quantified in quadruplicates using limited dilution method and calculated as TCID50/10^6 PBMCs. Neutralizing antibody titers were quantified by incubating MeV with 2-fold serial dilutions of the respective serum for 20 min at room temperature in quadruplicates. Vero/hSLAM cells were added and incubated for 3 days at 37 °C. Neutralizing antibody titers are expressed as the reciprocal of the highest serum dilution showing no signs of infection. For virus titration from throat swabs, swabs were placed in 150 μl DMEM with 3% penicillin/streptomycin and the titer was quantified by limited dilution method.

Cn1nc(C(F)(F)F)cc1C(=O)Nc1ccc(S(=O)(=O)N2CCCC[C@H]2CCN2CCOCC2)cc1 [ERDRP-0519]
development of neutralizing antibodies (all animals from the therapeutically treated groups): developed high levels of neutralizing antibodies | neutralizing antibody titers, on average (animals of all groups including prophylactically treated, reciprocal serum dilution): ≥ 120 | development of neutralizing antibodies (prophylactically treated group, until end of study): two animals did not develop neutralizing antibodies
